Anti-infective test results gathered from many reports (values: NIAID ChemDB through PubChem).

Common to all: tests in culture; organism: HIV-1; method: β-galactosidase; endpoint: EC50

ECn: concentration that inhibits the pathogen or its effect by n%. An empty or dashed field is not shown. Neighbouring rows are from separate reports.

structure | conditions | strain | mutations | cell line | value
O=C1CCCN1CCCN1CC(=O)N2CC(N(CCOc3ccccc3)S(=O)(=O)c3cccc(F)c3)C[C@H]2C1=O | - | NL4-3 | - | HeLaP4 | 0.248 µM
Cc1ccnc2c1NC(=O)c1cccnc1N2C1CC1 | - | NL4.3-XCS | K103N (NVP) | HeLa CD4 | 2.566 µM
Cn1nc(Cc2ccccc2)cc1C1CCN(C[C@H]2CN([C@@H](C(=O)O)C3CCCCC3)C[C@@H]2c2ccccc2)CC1 | - | BaL | - | HeLa | <0.0037 µM
O=c1[nH]cnc2c1ncn2[C@H]1CC[C@@H](CO)O1 | - | - | RT-Y181C | HeLa | 0.011 µM
O=C(O)Cc1ccc(CCCC2(O)CCN(C[C@H]3CN(CC4CCCCC4)C[C@@H]3c3ccccc3)CC2)cc1 | - | BaL | - | HeLa | <0.1 µM
Cc1ccc(-n2nnnc2-c2cn[nH]c2-c2cccc(F)c2)cc1 | - | NL4.3-XCS | 41-215 (AZT-resistant) | HeLa CD4 | 0.4 µM
Nc1ccn([C@H]2C[C@H](O)[C@](CO)(CF)O2)c(=O)n1 | - | RTMDR | RT | HeLa | 0.0039 µM
Cc1nc2ccccc2n1C1C[C@H]2CC[C@@H](C1)N2CC[C@H](NC(=O)C1CCOCC1)c1ccccc1 | - | BaL | - | HeLaP4 | 0.000216 µM
Cc1cc(S(N)(=O)=O)ccc1NC(=O)COc1ccc(Cl)cc1C(=O)c1cc(Cl)cc(C#N)c1 | - | HXB2 | - | HeLa + HeLa-MAGI | 0.0005 µM
Cc1cc(O)cc(S(=O)(=O)c2cccc(N)c2C#N)c1 | - | - | RT-V108I | HeLa + HELA CD4+ | 0.12 µM
CCCCn1nc(Cc2ccccc2)cc1C1CCN(C[C@H]2CN([C@@H](C(=O)O)C3CCCCC3)C[C@@H]2c2ccccc2)CC1 | - | BaL | - | HeLa | <0.011 µM
Cc1cc(Br)cc(S(=O)(=O)c2cccc(N)c2C#N)c1 | - | - | RT-V106A | HeLa + HELA CD4+ | 0.0024 µM
Cc1cc(C)cc(C(=O)c2cc(Cl)ccc2OCC(=O)Nc2ccc(S(N)(=O)=O)cc2C)c1 | - | HXB2 | - | HeLa + HeLa-MAGI | 0.0004 µM
CCCOc1ccc(Cc2cc(C3CCN(C[C@H]4CN([C@@H](C(=O)O)C5CCCCC5)C[C@@H]4c4cccc(F)c4)CC3)n(CC)n2)cc1 | - | BaL | - | HeLa | <0.0012 µM
C=CCN(C(=O)OCc1ccc([N+](=O)[O-])cc1)C1CCN(C[C@H]2CN(C(=O)c3ccccc3Cl)C[C@@H]2c2ccccc2)CC1 | - | BaL | - | HeLa | <0.001 µM
Cc1ccc(-c2ccc3c(c2)C=C(C(=O)Nc2ccc(C[N+](C)(C)C4CCOCC4)cc2)CCC3)cc1 | - | IIIB | - | MAGI + MAGI-CCR5 | >51 µM
O=C(O)c1ccc(CCCC2(O)CCN(C[C@H]3CN(CC4CCCCC4)C[C@@H]3c3ccccc3)CC2)cc1 | - | BaL | - | HeLa | <1 µM
Cc1cc(N2CCS(=O)CC2)ccc1NC(=O)COc1ccc(Cl)cc1C(=O)c1ccc(C#N)cc1 | - | HXB2 | - | HeLa + HeLa-MAGI | 0.026 µM
Cc1cn([C@H]2C[C@H](N=[N+]=[N-])[C@@H](CO)O2)c(=O)[nH]c1=O | 3 d | IIIB | - | MAGI + MAGI-CCR5 | 0.056 µM
C#C[C@]1(CO)O[C@@H](n2cnc3c(N)ncnc32)C[C@@H]1O | - | - | RT-K65R | HeLa | 0.033 µM
Oc1ccccc1CN(CCN1CCCCC1)CC1CCCN(C2CCCC2)C1 | - | LAI | - | MAGI | 7.3 µM
Cc1cc(S(N)(=O)=O)ncc1NC(=O)COc1ccc(Cl)cc1C(=O)c1cc(Cl)cc(C#N)c1 | - | HXB2 | RT-Y181C | HeLa + HeLa-MAGI | 0.002 µM
O=C(O)[C@@H](C1CCCCC1)N1C[C@H](CN2CCC(CCCc3ccccc3)CC2)[C@@H](c2ccccc2)C1 | - | BaL | - | HeLa | <0.011 µM
Cc1cn([C@H]2C=C[C@@H](CO)O2)c(=O)[nH]c1=O | - | A012B WT | - | MAGI (CCR5) + MAGI | 0.33 µM
COc1cc(/C=C/c2ccc3ccc(C(=O)O)c(O)c3n2)cc(O)c1O | - | NL4-3 | - | HeLa P4 + HeLa | 1 µM
Cc1cn([C@H]2C[C@H](N=[N+]=[N-])[C@@H](CO)O2)c(=O)[nH]c1=O | - | SUM13 | - | HELA/CD4 + HELA CD4+ | 8 µg/mL
O=C(O)c1cc(C(=O)O)cc(-c2c3nc(c(-c4cc(C(=O)O)cc(C(=O)O)c4)c4ccc([nH]4)c(-c4cc(C(=O)O)cc(C(=O)O)c4)c4nc(c(-c5cc(C(=O)O)cc(C(=O)O)c5)c5ccc2[nH]5)C=C4)C=C3)c1 | - | BaL | - | MAGI cell | 1.9 µM
Cc1ccnc2c1NC(=O)c1cccnc1N2C1CC1 | 3 d | HE-NEV | - | MAGI + MAGI-CCR5 | >1000 µM
Cc1cn([C@H]2C[C@H](N=[N+]=[N-])[C@@H](CO)O2)c(=O)[nH]c1=O | - | A031-1 | - | MAGI + MAGI-CCR5 | 0.024 µM
Cc1cc(C#N)cc(C(=O)c2cc(Cl)ccc2OCC(=O)Nc2ccc(S(N)(=O)=O)cc2C)c1 | - | HXB2 | - | HeLa + HeLa-MAGI | 0.0005 µM
NOCc1c(F)cccc1Cl | - | SUM9 | - | HELA/CD4 + HELA CD4+ | 1.4 µg/mL
c1cc(CN2CCCNCCNCCCNCC2)ccc1CN1CCCNCCNCCCNCC1 | - | IIIB | - | MAGI cell | 0.0034 µM
CCn1nc(CCc2ccccc2)cc1C1CCN(C[C@H]2CN([C@@H](C(=O)O)C3CCCCC3)C[C@@H]2c2cccc(F)c2)CC1 | - | BaL | - | HeLa | <0.011 µM
Cc1ccc(-c2ccc3c(c2)C=C(C(=O)Nc2ccc(C[N+](C)(C)C4CCOCC4)cc2)CCC3)cc1 | - | IIIB | - | MAGI + MAGI-CCR5 | >20 µM
Cc1cc(N2CCS(=O)CC2)ccc1NC(=O)COc1ccc(Cl)cc1C(=O)c1cccc(C#N)c1 | - | HXB2 | - | HeLa + HeLa-MAGI | 0.004 µM
CC[C@H](C)[C@H](C(=O)O)N1C[C@H](CN2CCC(c3cc(Cc4ccc(OC(F)F)cc4)nn3CC)CC2)[C@@H](c2cccc(F)c2)C1 | 50% human serum | BaL | - | HeLa | <0.011 µM
CCn1nc(Cc2ccccc2)cc1C1CCN(C[C@H]2CN([C@H](CC(C)C)C(=O)O)C[C@@H]2c2ccccc2)CC1 | - | BaL | - | HeLa | <0.0037 µM
Cc1cc(S(N)(=O)=O)ccc1NC(=O)COc1ccc(Cl)cc1C(=O)c1cc(Cl)cc(C#N)c1 | - | NNRTI-resistant (RT V106M) | RT-V106M | MAGI | 0.0013 µM
CCCn1ncc(CCc2ccccc2)c1C1CCN(C[C@H]2CN([C@@H](C(=O)O)C3CCCCC3)C[C@@H]2c2ccccc2)CC1 | - | BaL | - | HeLa | <0.011 µM
Cc1ccnc2c1NC(=O)c1cccnc1N2C1CC1 | - | NL4-3 WT | - | MAGI (CCR5) + MAGI | 0.061 µM
CCn1cc(CCc2ccccc2)c(C2CCN(C[C@H]3CN([C@@H](C(=O)O)C4CCCCC4)C[C@@H]3c3ccccc3)CC2)n1 | - | BaL | - | HeLa | <0.3 µM
CCn1nc(Cc2ccc(OC(F)(F)F)cc2)cc1C1CCN(C[C@H]2CN([C@@H](C(=O)O)C(C)(C)C)C[C@@H]2c2cccc(F)c2)CC1 | 50% human serum | BaL | - | HeLa | <0.1 µM
CC(C)Oc1ccc(OC(C)C)c2c3nc4nc(nc5[nH]c(nc6nc(nc([nH]3)c12)C(SCCCC(=O)O)=C6SCCCC(=O)O)c1c(OC(C)C)ccc(OC(C)C)c51)C(SCCCC(=O)O)=C4SCCCC(=O)O | - | IIIB | - | MAGI | <5 µg/mL
COc1cc(C(F)(F)F)cc(S(=O)(=O)c2cccc(N)c2C#N)c1 | - | - | RT-Y188C | HeLa + HELA CD4+ | 0.3 µM
CCn1nc(Cc2ccc(Oc3ccccc3)cc2)cc1C1CCN(C[C@H]2CN([C@@H](C(=O)O)C(C)(C)C)C[C@@H]2c2cccc(F)c2)CC1 | 50% human serum | BaL | - | HeLa | <0.3 µM
O=C(O)c1cc[c]([Sb](=[O])([OH])[OH])cc1[N+](=O)[O-] | - | NL4-3 | - | MAGI | 2.47 µM
O=C1O[C@H]2[C@@H]3OC(=O)c4cc(O)c(O)c(O)c4-c4c(cc(O)c(O)c4O)C(=O)OC[C@H]2O[C@@H](OC(=O)c2cc(O)c(O)c(O)c2)[C@@H]3OC(=O)c2cc(O)c(O)c3c2[C@@H]2C1=CC(=O)[C@](O)(O3)C2(O)O | - | - | - | MAGI | 0.25 µM
COC(=O)N[C@H](C(=O)N[C@@H](Cc1ccccc1)[C@@H](O)CN(Cc1ccc(-c2ccccn2)cc1)NC(=O)[C@@H](NC(=O)OC)C(C)(C)C)C(C)(C)C | - | Site-directed PR mutant 06 | PR-I50L A71V | HeLa | 0.0118 µM
CN(C)c1cccc2c(S(=O)(=O)N3CCSC3c3cccnc3)cccc12 | 3 d | HE-NEV | - | MAGI + MAGI-CCR5 | >2000 µM
COc1ccc(CN(CCN2CCCCC2)CC2CCCN(C3CCCC3)C2)cc1O | - | BaL | - | MAGI | >10 µM
c1ccc(CNc2nc(-c3cccnc3)cs2)cc1 | - | NL4.3-XCS | 41-215 (AZT-resistant) | HeLa CD4 | 0.533 µM
CC[C@H](C)[C@H](C(=O)O)N1C[C@H](CN2CCC(c3cc(Cc4ccc(OCC(F)(F)F)cc4)nn3CC)CC2)[C@@H](c2cccc(F)c2)C1 | 50% human serum | BaL | - | HeLa | <0.033 µM
COc1cc(OC)cc(C(=O)c2cc(Cl)ccc2OCC(=O)Nc2ccc(S(N)(=O)=O)cc2C)c1 | - | HXB2 | - | HeLa + HeLa-MAGI | 0.016 µM
O=C(O)[C@@H](C1CCCCC1)N1C[C@H](CN2CCC(c3cc(Cc4ccccc4)[nH]n3)CC2)[C@@H](c2ccccc2)C1 | - | BaL | - | HeLa | <0.0004 µM
Cn1c(CN(CCN2CCCCC2)CC2CCCN(C3CCCC3)C2)nc2ccccc21 | - | LAI | - | MAGI | 1.2 µM

5 of the rows above, restated:

CCCn1ncc(CCc2ccccc2)c1C1CCN(C[C@H]2CN([C@@H](C(=O)O)C3CCCCC3)C[C@@H]2c2ccccc2)CC1 ; strain: BaL ; cell line: HeLa ; value: <0.011 µM
Cc1cc(S(N)(=O)=O)ccc1NC(=O)COc1ccc(Cl)cc1C(=O)c1cc(Cl)cc(C#N)c1 ; strain: NNRTI-resistant (RT V106M) ; mutations: RT-V106M ; cell line: MAGI ; value: 0.0013 µM
c1cc(CN2CCCNCCNCCCNCC2)ccc1CN1CCCNCCNCCCNCC1 ; strain: IIIB ; cell line: MAGI cell ; value: 0.0034 µM
O=C(O)[C@@H](C1CCCCC1)N1C[C@H](CN2CCC(c3cc(Cc4ccccc4)[nH]n3)CC2)[C@@H](c2ccccc2)C1 ; strain: BaL ; cell line: HeLa ; value: <0.0004 µM
O=C(O)Cc1ccc(CCCC2(O)CCN(C[C@H]3CN(CC4CCCCC4)C[C@@H]3c3ccccc3)CC2)cc1 ; strain: BaL ; cell line: HeLa ; value: <0.1 µM